Compound potency records, mixed from different reports. Data source: NIAID ChemDB in PubChem.

Shared fields: enzyme or target tests; agent: HIV-1; target: Integrase; read-out: inhibition

Lines come from different laboratories, so protocols vary. Percent inhibition refers to the dose given; in toxicity tests it is the harm to the cells. Blank or dashed fields: not listed here.

compound,tested at,read by,value
C[C@H](NC(=O)/C=C(\O)C(=O)O)c1ccccc1,70 µM,strand transfer,25%
O=C(/C=C/c1ccc(O)c(O)c1)NCCC(NC(=O)/C=C/c1ccc(O)c(O)c1)C(=O)O,10 µM,3′ processing,93%
COc1ccc(CNC(=O)/C=C(\O)C(=O)O)c(OC)c1,70 µM,strand transfer,65%
COc1ccc(/C=C/c2ccc3c(Cl)cc(NS(=O)(=O)c4ccccc4)c(O)c3n2)cc1,0.05 µM,strand transfer,60.3%
COc1cccc2cc(CNC3CCCC3)c(=O)[nH]c12,20 µM,strand transfer / absorbance,11.1%
Cc1ccc(S(=O)(=O)Nc2cc(Cl)c3ccc(/C=C/c4ccc(O)cc4)nc3c2O)cc1,0.05 µM,strand transfer,100.6%
O=C(NCCC(NC(=O)c1ccc(O)c(O)c1)C(=O)O)c1ccc(O)c(O)c1,10 µM,3′ processing,0%
O=C(/C=C(\O)C(=O)O)NCc1ccc(Cl)cc1,70 µM,strand transfer,80%
COC(=O)C(CCCNC(=O)/C=C/c1cc(O)c(O)c(O)c1)NC(=O)/C=C/c1cc(O)c(O)c(O)c1,10 µM,3′ processing,96%
COC(=O)c1cc(O)c(O)c(O)c1,62.5 µM,3′ processing,29.8%
O=S(=O)(Nc1cc(Cl)c2ccc(/C=C/c3ccc(O)cc3)nc2c1O)c1ccccc1,0.05 µM,strand transfer,101.4%
C#CCNC/C(=C\c1ccccc1Oc1ccccc1)C(=O)OC,10 µM,,31%
COC(=O)[C@H](CCCCNC(=O)/C=C/c1ccc(O)c(O)c1)NC(=O)/C=C/c1ccc(O)c(O)c1,10 µM,3′ processing,100%
O=c1[nH]c2ccccc2cc1CNC1CCCCC1,20 µM,strand transfer / absorbance,24.4%
COc1ccc(/C=C/c2ccc3c(Cl)cc(NS(=O)(=O)c4ccc(C)cc4)c(O)c3n2)cc1,0.05 µM,strand transfer,54.6%
COC(=O)C(CCNC(=O)c1ccc(O)c(O)c1)NC(=O)c1ccc(O)c(O)c1,10 µM,3′ processing,0%
COc1ccc2[nH]c(=O)c(CN(C(=O)c3ccccc3)C3CC3)cc2c1,20 µM,strand transfer / absorbance,40.2%
CCOc1cccc(/C=C(\CNCc2cn([C@H]3C[C@H](n4cc(C)c(=O)[nH]c4=O)O[C@@H]3CO)nn2)C(=O)OC)c1OCc1ccccc1,10 µM,,18.7%
COc1cccc2cc(CNC3CCCCC3)c(=O)[nH]c12,20 µM,strand transfer / absorbance,36.1%
CCCCOC(=O)C(CNCc1cn([C@H]2C[C@H](n3cc(C)c(=O)[nH]c3=O)O[C@@H]2CO)nn1)C(O)c1cc(Cl)ccc1O,10 µM,,45.6%
O=C(/C=C(\O)C(=O)O)NCc1ccc(F)cc1,70 µM,strand transfer,80%
COC(=O)/C(=C/c1cc(Br)ccc1OCc1ccccc1)CNCc1cn([C@H]2C[C@H](n3cc(C)c(=O)[nH]c3=O)O[C@@H]2CO)nn1,10 µM,,29.8%
O=C(/C=C(\O)C(=O)O)NCc1cc(F)cc(F)c1,70 µM,strand transfer,60%
COc1cccc2cc(CN(C(=O)c3ccccc3)C3CCCCC3)c(=O)[nH]c12,20 µM,strand transfer / absorbance,30%
COC(=O)C(CCCCNC(=O)c1ccc(O)c(O)c1)NC(=O)c1ccc(O)c(O)c1,10 µM,3′ processing,0%
O=C(c1ccccc1)N(Cc1cc2ccccc2[nH]c1=O)C1CCCC1,20 µM,strand transfer / absorbance,46.2%
CCCCOC(=O)C(CNCc1cn([C@H]2C[C@H](n3cc(C)c(=O)[nH]c3=O)O[C@@H]2CO)nn1)C(O)c1cccc(OCC)c1O,10 µM,,26.7%
COc1ccc(CNC(=O)/C=C(\O)C(=O)O)cc1,70 µM,strand transfer,70%
C#CCNC/C(=C\c1cc(Cl)ccc1OCc1ccccc1)C(=O)OC,10 µM,,9.1%
COC(=O)[C@H](CCCCNC(=O)c1cc(O)c(O)c(O)c1)NC(=O)c1cc(O)c(O)c(O)c1,10 µM,3′ processing,0%
O=C(/C=C(\O)C(=O)O)NCc1cccc(Cl)c1Cl,70 µM,strand transfer,80%
C#CCNCC(C(=O)OCCCC)C(O)c1cccc(OC)c1O,10 µM,,51.7%
COC(=O)C(CNC(=O)/C=C/c1ccc(O)c(O)c1)NC(=O)/C=C/c1ccc(O)c(O)c1,10 µM,3′ processing,98%

Again, the opening 3 rows:

C[C@H](NC(=O)/C=C(\O)C(=O)O)c1ccccc1 ; tested at: 70 µM ; read by: strand transfer ; value: 25%
O=C(/C=C/c1ccc(O)c(O)c1)NCCC(NC(=O)/C=C/c1ccc(O)c(O)c1)C(=O)O ; tested at: 10 µM ; read by: 3′ processing ; value: 93%
COc1ccc(CNC(=O)/C=C(\O)C(=O)O)c(OC)c1 ; tested at: 70 µM ; read by: strand transfer ; value: 65%